Compound potency records, mixed from different reports. Data source: NIAID ChemDB in PubChem.

Shared fields: growth or infection tests; species: Mycobacterium tuberculosis

Rows are shuffled and stem from different studies. Percent inhibition refers to the dose given; in toxicity tests it is the harm to the cells. A number after MIC or MFC names an inhibition level or a share of isolates. ECn is the concentration giving n% inhibition of infection, replication or growth. a–b is a range or a potency band. Blank or dashed fields: not listed here. MIC bound comes from a single tested concentration.

SMILES,cell line,tested at,measure,changes,read by,strain or isolate,result
FC(F)(F)c1cc(NCCNc2cc(C(F)(F)F)nc3c(C(F)(F)F)cccc23)c2cccc(C(F)(F)F)c2n1,-,-,MIC,-,-,H37Rv,>6.25 µg/mL
CC1(C23CC4CC(CC(C4)C2)C3)n2c(=O)n(-c3ccccc3)c(=O)n2C1(C)C12CC3CC(CC(C3)C1)C2,-,-,MIC bound,-,resazurin,H37Rv,>6.25 µg/mL
COc1ccc(C2CC(=O)NN2)cc1,-,-,MIC,-,-,BCG,>100 µg/mL
COc1cc2c(c3c1c(=S)c1ccccc1n3C)C=CC(C)(C)O2,-,12.5 µg/mL,inhibition,-,BACTEC,H37Rv,-1%
CC(=N/NC(=O)c1cccnc1)/C(C)=N/O,-,-,MIC,-,-,-,100 µg/mL
O=C(N/N=C/c1ccccc1O)c1ccc(F)cc1,-,6.25 µg/mL,inhibition,-,-,H37Rv,17%
COc1ccc2c(c1OC)C(CC(C)=O)N(C)c1c-2ccc2cc3c(cc12)OCO3,-,-,MIC,-,broth dilution / turbidity,H37Rv (ATCC 27294),>50 µg/mL
CCOC(=O)C1(C)CCc2sc(N)c(C#N)c21,-,-,MIC bound,-,BACTEC,H37Rv,>12.5 µg/mL
COc1ccccc1Nc1nc(NNc2nc(-c3ccccc3)c(C#N)c(=O)n2C)nc(Nc2ccccc2OC)n1,-,-,EC50,-,-,H37Rv,<12.5 µg/mL
C=C1C(=O)O[C@@H]2C[C@@]3(C)C=CC(=O)C(=C)[C@@H]3C[C@H]12,-,-,MIC bound,-,BACTEC,H37Rv,≤12.5 µg/mL
C/C(=C\CO)CCC[C@H](C)CCC[C@H](C)CCCC(C)C,-,-,EC50,-,-,H37Rv,<33 µg/mL
CCCCCCCCNC(CC(=O)OCC)c1ccc([N+](=O)[O-])cc1,-,-,MIC,-,-,H37Ra,<25 µg/mL
C/C=C/Cn1c(=O)c2c(ncn2C)n(C)c1=O,-,-,MIC bound,-,BACTEC,H37Rv,>12.5 µg/mL
O=c1cc(-c2ccccc2)c2cc(Cl)ccc2o1,-,-,MIC90,Streptomycin-resistant,resazurin,-,>100 µg/mL
COC(C)(C)c1cc(C(C)(C)C)c(O)c(C(C)(C)C)c1,-,-,MIC bound,-,BACTEC,H37Rv,>6.25 µg/mL
COc1ccc(CC[N+](=O)[O-])cc1,-,-,MIC,-,-,BCG,>100 µg/mL
CC[C@H](C)N1CCN(c2cc(=O)c3nc4c(oc3c2)c2c(=O)c3c(O)c(C)c5c(c34)=C(O)[C@@](C)(O/C=C/[C@H](OC)[C@@H](C)[C@@H](OC(C)=O)[C@H](C)[C@H](O)[C@H](C)[C@@H](O)[C@@H](C)/C=C/C=C(/C)C(=O)N2)O5)CC1,-,-,MIC90,-,-,6 strains (rifampicin-resistant),0.025 µg/mL
COc1ccc2c(c1OC)CN(C)c1c-2ccc2cc3c(cc12)OCO3,-,-,MIC,-,broth dilution / turbidity,H37Ra ATCC 25177,>50 µg/mL
Nc1cccc2c1C(=O)c1ccc(Cl)cc1C2=O,-,-,MIC bound,-,BACTEC,H37Rv,>12.5 µg/mL
O=C(N/N=C/c1ccc(F)cc1)c1ccc(F)cc1,-,-,EC50,-,-,H37Rv,>6.25 µg/mL
CCOC(=O)N1C2CC=CCC1C1(c3ccccc3)OC2(c2ccccc2)c2ccccc21,-,12.5 µg/mL,inhibition,-,BACTEC,H37Rv,-26%
CC[C@H](CC[C@@H](C)[C@H]1CC[C@H]2[C@@H]3CC=C4C[C@@H](O)CC[C@]4(C)[C@H]3CC[C@]12C)C(C)C,-,-,MIC,-,-,H37Rv,128 µg/mL
CCCCCCCCCCCCCCCCNCc1ccncc1,-,-,MIC,-,-,Clinical isolates MDR,3.12 µg/mL
O=C1c2ccccc2C(=O)c2sc(Nc3ccccc3Cl)nc21,-,-,MIC bound,-,BACTEC,H37Rv,≤12.5 µg/mL
CCCCCCCCCCCC(=O)CC1c2c(ccc(OC)c2OC)-c2ccc3cc4c(cc3c2N1C)OCO4,-,-,MIC,-,broth dilution / turbidity,H37Rv (ATCC 27294),>50 µg/mL
COc1cccc(Nc2nc(NNc3nc(-c4ccccc4)c(C#N)c(=O)n3C)nc(Nc3cccc(OC)c3)n2)c1,VERO,12.5 µg/mL,inhibition,-,-,H37Rv,92%
COc1ccc(/C=C/C(=O)O)cc1,-,-,MIC,-,-,BCG,100 µg/mL
CC(=O)NC[C@H]1CN(c2ccc(N3CCN(Cc4ccc([N+](=O)[O-])o4)CC3)c(F)c2)C(=O)O1,-,-,Geometric mean MIC,-,-,59 isolates,2.303 µg/mL
FC(F)(F)c1cc(NCCCCCCCCCNc2cc(C(F)(F)F)nc3c(C(F)(F)F)cccc23)c2cccc(C(F)(F)F)c2n1,-,-,MIC,-,-,H37Rv,>6.25 µg/mL
CCCCCCCCNC(CCO)c1cccc([N+](=O)[O-])c1,-,-,MIC,-,-,Sensitive strains,12.5 µg/mL
CC1COc2c(N3CCN(C)CC3)c(F)cc3c(=O)c(C(=O)O)cn1c23,-,-,MIC90,-,-,-,0.5–4 µg/mL
CC(=O)OC/C=C(\C)CCC[C@H](C)CCC[C@H](C)CCCC(C)C,-,-,MIC,-,-,H37Rv,16 µg/mL
COc1cc2cc3c4cc(OC)c(OC)cc4cc[n+]3cc2cc1OC,-,12.5 µg/mL,inhibition,-,BACTEC,H37Rv,-6%
COC(=O)[C@]12OC[C@@]34[C@@H](CC5=C(C)C(=O)C(O)=C[C@]5(C)[C@H]3[C@@H](O)[C@@H]1O)OC(=O)[C@H](OC(=O)/C=C(\C)C(C)C)[C@@H]24,-,-,EC50,-,-,H37Rv,>12.5 µg/mL
COc1ccc(Nc2nc(NNc3nc(-c4ccc(Cl)cc4)c(C#N)c(=O)n3C)nc(Nc3ccc(OC)cc3)n2)cc1,-,-,MIC,-,-,H37Rv,>12.5 µg/mL
CCCCCCCCCCCCC(C(=O)O)c1ccccc1,-,-,MIC,-,-,BCG,100 µg/mL
CCn1cc(C(=O)O)c(=O)c2cc(F)c(N3CCN(C)CC3)cc21,-,-,MIC50,-,-,-,8 µg/mL
NCCCn1[nH]c(=O)c2cnccc2c1=O,-,12.5 µg/mL,inhibition,-,BACTEC,H37Rv,0%
O=C(N/N=C/c1ccc(Br)cc1)c1ccc(F)cc1,-,-,EC50,-,-,H37Rv,>6.25 µg/mL
Cn1c(NNc2nc(Nc3ccc(Cl)cc3)nc(Nc3ccc(Cl)cc3)n2)nc(-c2ccc(Cl)cc2)c(C#N)c1=O,-,12.5 µg/mL,inhibition,-,-,H37Rv,94%
CC(C)(C)NCCNc1cc(C(F)(F)F)nc2c(C(F)(F)F)cccc12,-,6.25 µg/mL,inhibition,-,-,H37Rv,4%
COC(=O)[C@]12OC[C@]34[C@H]([C@@H](O)[C@@H]1O)[C@@]1(C)C(=O)C(O)=C[C@@H](C)[C@@H]1C[C@H]3OC(=O)[C@H](OC(=O)/C=C(\C)C(C)C)[C@@H]24,-,-,EC50,-,-,H37Rv,>12.5 µg/mL
Cn1c(NNc2nc(Nc3ccccn3)nc(Nc3ccccn3)n2)nc(-c2ccc(Cl)cc2)c(C#N)c1=O,-,-,MIC,-,-,H37Rv,>12.5 µg/mL
CO[C@H]1/C=C/O[C@@]2(C)Oc3c(C)c(O)c4c(O)c(c5c(c4c3C2=O)NC2(CCN(CC(C)C)CC2)N=5)=NC(=O)/C(C)=C\C=C\[C@H](C)[C@H](O)[C@@H](C)[C@@H](O)[C@@H](C)[C@H](OC(C)=O)[C@@H]1C,-,-,MIC90,-,-,-,1.56–10 µg/mL
Cn1c(NNc2nc(NCc3ccco3)nc(NCc3ccco3)n2)nc(-c2ccc(Cl)cc2)c(C#N)c1=O,-,12.5 µg/mL,inhibition,-,-,H37Rv,17%
O=C(O)c1nc(N=Nc2ccccc2)[nH]c1C(=O)O,-,-,MIC bound,-,resazurin,H37Rv,>6.25 µg/mL
CC(C)[C@@H](C)/C=C/[C@@H](C)[C@H]1CCC2[C@@]34C=C[C@]5(C[C@@H](O)CC[C@]5(C)C3CC[C@@]21C)OO4,-,-,MIC,-,-,H37Rv,2.5 µg/mL
Cc1ccc(/C=N/NC(=O)c2ccncc2)cc1,-,-,MIC,-,-,-,0.1 µg/mL
CCOC(=O)CC(c1cccc([N+](=O)[O-])c1)N1CCCC1,-,-,MIC,-,-,Sensitive strains,25 µg/mL
O=C(N/N=C/c1ccc(OCCO)cc1)c1ccncc1,-,-,MIC,-,-,-,0.1 µg/mL
COc1cc(/C=C/CO)cc2cc(-c3ccc4c(c3)OCO4)oc12,-,-,MIC,-,broth dilution / turbidity,H37Rv (ATCC 27294),>50 µg/mL
CO[C@H]1/C=C/O[C@@]2(C)Oc3c(C)c(O)c4c(O)c5c(c(O)c4c3C2=O)CN=C(N5)/C(C)=C\C=C\[C@H](C)[C@H](O)[C@@H](C)[C@@H](O)[C@@H](C)[C@H](OC(C)=O)[C@@H]1C,-,-,MIC,-,-,234,>1 µg/mL
O=C1OCC(Cc2ccc3c(c2)OCO3)/C1=C\c1ccc2c(c1)OCO2,-,-,MIC,-,broth dilution / turbidity,H37Ra ATCC 25177,>50 µg/mL
Nc1ccc2cc(S(=O)(=O)O)cc(O)c2c1N=Nc1ccc(NC(=O)c2ccc(C(=O)Nc3ccc(N=Nc4c(N)ccc5cc(S(=O)(=O)O)cc(O)c45)c(S(=O)(=O)O)c3)cc2)cc1S(=O)(=O)O,-,-,MIC,-,BACTEC,H37Rv,≥12.5 µg/mL
COC1=C[C@@H](C)[C@@H]2C[C@H]3OC(O)C[C@H]4[C@](C)(O)[C@H](OC)[C@@H](O)[C@H]([C@@]2(C)C1=O)[C@@]34C,-,-,EC50,-,-,H37Rv,>12.5 µg/mL
O=C(N/N=C/CCc1ccccc1)c1ccncc1,-,-,MIC,-,-,-,0.1 µg/mL
Cc1ccc2c(c1)nc1cc(Nc3ccc(Cl)cc3)c(=NC3CCCCCCC3)cc-1n2-c1ccc(Cl)cc1,-,-,MIC,-,-,H37Rv (EB-resistant),0.1 µg/mL
FC(F)(F)c1cc(NCCN2CCCC2)c2cccc(C(F)(F)F)c2n1,-,-,MIC,-,-,H37Rv,>6.25 µg/mL
[Cl][Sn]([Cl])([c]1cccs1)[c]1cccs1.c1cnc2c(c1)ccc1cccnc12,-,12.5 µg/mL,inhibition,-,BACTEC,H37Rv,98%
O=C(N/N=C/c1ccc([N+](=O)[O-])s1)c1ccc(Cl)cc1,-,-,MIC,-,-,H37Rv,<6.25 µg/mL
CC(C)CCC[C@@H](C)[C@H]1CC[C@H]2[C@@H]3CC=C4C/C(=N/NC(=O)c5ccncc5)CC[C@]4(C)[C@H]3CC[C@]12C,-,-,MIC,-,-,-,0.001 µg/mL
CCCCCCCCNC(CC(=O)OCC)c1cccc([N+](=O)[O-])c1,-,-,MIC,-,-,H37Ra,>25 µg/mL
CCN(CC)CC(=O)O[C@]1(CC)C(=O)OCc2c1cc1n(c2=O)Cc2cc3ccccc3nc2-1.Cl,-,-,MIC bound,-,BACTEC,H37Rv,>12.5 µg/mL
CC1=CC(=O)[C@@H](O)[C@]2(C)[C@@H]3[C@]45COC(=O)[C@@]3(O)C(C)[C@@H]4CC(=O)O[C@@H]5C[C@@H]12,-,-,EC50,-,-,H37Rv,>12.5 µg/mL
Cn1c(NNc2nc(Nc3ccc(Cl)cc3)nc(Nc3ccc(Cl)cc3)n2)nc(-c2ccccc2)c(C#N)c1=O,-,-,EC50,-,-,H37Rv,>12.5 µg/mL
Cc1occc1C(=S)Nc1ccc(Cl)c(C(=O)OC(C)C2CC2)c1,-,-,MIC bound,-,BACTEC,H37Rv,>12.5 µg/mL
CCCCCCCCCCCCNC(CC(=O)OCC)c1cccc([N+](=O)[O-])c1,-,-,MIC,-,-,H37Ra,>25 µg/mL
Cn1c(NNc2nc(Nc3cccc([N+](=O)[O-])c3)nc(Nc3cccc([N+](=O)[O-])c3)n2)nc(-c2ccc(Cl)cc2)c(C#N)c1=O,VERO,-,EC50,-,-,H37Rv,<12.5 µg/mL
CC[C@H](/C=C/C(C)[C@H]1CCC2C3CCC4CC(=O)CC[C@]4(C)C3CC[C@@]21C)C(C)C,-,-,MIC,-,-,H37Rv,<2 µg/mL
COc1cc(/C=C/C2c3c(ccc(OC)c3OC)-c3ccc4cc5c(cc4c3N2C)OCO5)ccc1O,-,-,MIC,-,broth dilution / turbidity,H37Ra ATCC 25177,>50 µg/mL
CO[C@H]1/C=C/O[C@@]2(C)Oc3c(C)c(O)c4c(=O)c(c5oc6cc(N7CCN(CC(C)C)CC7)cc(=O)c6nc5c4c3=C2O)NC(=O)/C(C)=C\C=C\[C@H](C)[C@H](O)[C@@H](C)[C@@H](O)[C@@H](C)[C@H](OC(C)=O)[C@@H]1C,-,-,MIC90,-,-,6 strains (rifampicin-resistant),≤0.0125 µg/mL
COc1cccc2c1C(=O)C1=C(C2=O)c2c(O)cc(CO)cc2C(O)C1O,-,-,MIC,-,BACTEC,H37Rv,≥12.5 µg/mL
O=C(N/N=C/c1ccco1)c1ccncc1,-,-,MIC,-,-,-,0.1–10 µg/mL
CCCCCCCCNCc1ccncc1,-,-,MIC,-,-,H37Ra,<25 µg/mL
CC(=O)NC1(C)C2CCC3(C)N=C(C)C1CC3C2,-,-,MIC bound,-,BACTEC,H37Rv,>12.5 µg/mL
COc1ccc(/C=C/C(=O)NN)cc1,-,-,MIC,-,-,BCG,2 µg/mL
Cc1ccc(NCCC2CCCN3CCCCC23)c2c(=O)c3ccccc3sc12,-,-,MIC bound,-,BACTEC,H37Rv,≤12.5 µg/mL
NNC(=O)/C=C/c1ccc(Cl)cc1,-,-,MIC,-,-,BCG,2 µg/mL
Fc1ccc(NC(=S)SCc2ccc(Cl)c(Cl)c2)cc1,-,128 µg/mL,inhibition,-,BACTEC,H37Rv,100%
CC(C)=CCC/C(C)=C/CO,-,-,MIC,-,-,H37Rv,64 µg/mL